Measurements reported in PubChem BioAssay AID504761 (Drosophila RNAi Screening Center, 2011)
The screen tested about 22,000 reagents; below is an unselected part of those with a known target gene and a result. In the full data, 116 (0.52%) got an active call. 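Calls depend on retest data that are not deposited; infection was ranked per plate without normalising between plates; the unit of the infection score is not given.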 Raw values are not corrected between plates. A plus sign joins genes that one reagent is predicted to hit. Not stated in the record: the amount of reagent, the time to read-out.

- Purpose: 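Insect host genes that dengue virus relies on to spread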 (primary screen)
- Cells: D.Mel-2 cells from Drosophila
- Reagents: long dsRNA against Drosophila genes
- Conditions: infection with dengue virus type 2; dose and infection time not stated
- Read-out: 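Cells stained for dengue envelope protein and imaged; percent of infected cells per well on duplicate plates, ranked by infection, with stained nuclei counted for cell number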
- Reading the numbers: infection score: higher = more virus-infected cells; cell count: higher = more cells in the well
- Rule for the call: 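Low infection ranks in the two replicates (chance level up to 0.065) followed by a retest with a 1.5-fold or larger significant decrease, p below 0.05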
- Meaning of the calls: active = confirmed: knock-down lowers infection; inactive = not picked or not confirmed

predicted target	amplicon	infection score, replicate 1	infection score, replicate 2	cell count, replicate 1	cell count, replicate 2	Outcome
BomT3	DRSC15871	12	0.75	6031	6532	inactive
BomT3	DRSC25578	3.38	6.16	6279	5645	inactive
Mtmr6	DRSC04046	5.72	4.56	6432	6167	inactive
Mtmr6	DRSC26569	1.62	4.69	5863	5820	inactive
CG32432	DRSC11744	4.67	6.7	6599	6507	inactive
CG15631	DRSC00466	3.2	2.66	6132	6686	inactive
Ccp84Ag	DRSC12592	8.92	13.5	5863	5956	inactive
Ccp84Ag	DRSC22085	4.5	4.29	6726	6130	inactive
Ccp84Ag	DRSC30073	3.82	10	6643	5766	inactive
CG11912	DRSC00332	7.72	1.23	4596	6761	inactive
Lip4	DRSC02930	2.88	2.17	6113	6827	inactive
Sas-6	DRSC15061	3.69		3385	269	inactive
wcd	DRSC07051	16.8	14.8	4851	4868	inactive
Ank2	DRSC08894	0.75	0.83	5905	6026	inactive
Ank2	DRSC09666	2.54	1.49	6192	6252	inactive
Ank2	DRSC10338	6.09	2.13	6007	6200	inactive
Ank2	DRSC11278	3.59	3.38	6127	6088	inactive
Ank2	DRSC22922	0.83	8.89	6495	7258	inactive
Ank2	DRSC29821	14.3	9.88	6271	6217	inactive
CG13123	DRSC02219	2.25	5.65	6124	6899	inactive
CG8564	DRSC10997	12.1	5.47	6021	6360	inactive
PLCXD	DRSC02427	5.97	3.46	6722	6784	inactive

The list goes on (5 carried over from the part before).
predicted target	amplicon	infection score, replicate 1	infection score, replicate 2	cell count, replicate 1	cell count, replicate 2	Outcome
Ank2	DRSC22922	0.83	8.89	6495	7258	inactive
Ank2	DRSC29821	14.3	9.88	6271	6217	inactive
CG13123	DRSC02219	2.25	5.65	6124	6899	inactive
CG8564	DRSC10997	12.1	5.47	6021	6360	inactive
PLCXD	DRSC02427	5.97	3.46	6722	6784	inactive
CG8036	DRSC16366	4.97	7.07	6202	2037	inactive
MRG15	DRSC16731	19.1	19.2	2657	4439	inactive
Gyc88E	DRSC15547	2.8	19.2	5721	5955	inactive
Cad87A	DRSC16161	2.3	6.92	6691	6948	inactive
Cad87A	DRSC29158	8.3	15.2	4600	5916	inactive
CG4714	DRSC06883	19.5	4.37	6109	6431	inactive
CG1409	DRSC17910		22	440	5144	inactive
Amy-d + Amy-p	DRSC21242	1.19	4.44	5898	6076	inactive
Amy-d + Amy-p	DRSC24129	1.54	1.36	6495	6270	inactive
CG8306	DRSC07141	12	2.9	6487	6926	inactive
CG8306	DRSC24656	1.44	11.3	5972	4923	inactive
Ocho	DRSC11239	2.79	4.09	6271	6140	inactive
Ocho	DRSC28920	21.1	24.8	5441	5219	inactive
Nepl18	DRSC14879	2.74	5.32	6237	5832	inactive
CG9175	DRSC03153	5.03	0.69	6066	6197	inactive
TTLL6B	DRSC15932	7.14	4.06	5564	6347	inactive
TTLL6B	DRSC26754	15.1	8.99	4355	5086	inactive
